Results deposited as PubChem BioAssay AID1224833 (University of Georgia, 2016)

Aim: 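Human genes whose knock-down alters rotavirus replication in monkey cells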 (primary screen)
Cell system: monkey MA104 kidney cells
Reagent: siRNA pool against human genes, 50 nM
Duration: 48 h knock-down before infection; read 24 h after infection
Treatment: infection with rotavirus strain RV3 two days after transfection; infectious dose for this stage not given
Measurement: 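z-score of rotavirus antigen signal per well, from a fluorescent immunoassay, relative to non-targeting control wells on the same plate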
Direction: z-score vs non-targeting control: higher = more rotavirus replication than with non-targeting control
Active means: In these data the active calls have z-score vs non-targeting control at about -1 or lower, or at about 1 or higher
Meaning of the calls: active = z-score beyond 1 either way; inactive = z-score within 1 of zero
In all, the deposit lists about 12,000 reagents; below is an unselected part. Of all reagents, about 5,600 (46%) are marked active. 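Active calls cover z-scores past 1 in both directions, so they include lowered as well as raised rotavirus replication.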 A number with no mark means an inactive call. Reagent sequences are not shown.

no.	gene	z-score vs non-targeting control
1	GIMAP1	0.101
2	SUMO2	1.99 (active)
3	FZD4	-0.524
4	POLK	-1.46 (active)
5	ENSA	-0.715
6	PSME2	0.919
7	ZNF740	1.67 (active)
8	ADAM2	-1.35 (active)
9	LIG4	-1.39 (active)
10	SYNM	-1.23 (active)
11	CHD2	-0.769
12	TPMT	-0.613
13	KLK7	0.791
14	HSPB6	-0.668
15	CLPX	1.96 (active)
16	SLC4A4	-1.68 (active)
17	MS4A15	-2.8 (active)
18	PIN1	1.47 (active)
19	ZNF780B	-1.63 (active)
20	EMILIN3	-2.66 (active)
21	ZNF672	-1.15 (active)
22	PEX13	1.89 (active)
23	UCHL5	1.19 (active)
24	SBF2	0.64
25	FBLN7	-0.493
26	YY2	1.6 (active)
27	ERCC6L	1.38 (active)
28	TMX2	0.923
29	TSPEAR	0.326
30	GBA2	0.878
31	EIF4EBP1	-1.11 (active)
32	PDHB	1.4 (active)
33	KIF1A	-0.5
34	GUCY1A1	-1.26 (active)
35	POU4F1	2.25 (active)
36	C19orf12	0.545
37	OR1G1	-2.47 (active)
38	ACAD9	1.44 (active)
39	NUMA1	-0.864
40	PRODH2	-0.632
41	STARD13	-0.871
42	RBL1	-0.894
43	SPPL2B	0.98
44	LINC01600	0.106
45	AGMAT	1.54 (active)
46	MYRIP	0.0202
47	LCP1	-0.647
48	PDGFB	0.163
49	LMAN2	0.363
50	BCOR	2.17 (active)
51	PLXNA1	0.997
52	C10orf55	-1.71 (active)
53	ARPC1B	-2.18 (active)
54	TOMM20	-1.95 (active)
55	SLC35G2	-2.63 (active)
56	SUMF1	-0.964
57	COL9A1	-2.69 (active)
58	ABRAXAS1	-1.23 (active)
59	UNC5CL	0.823
60	CCDC184	-0.484
61	TATDN1	-0.441
62	PRADC1	1.21 (active)
63	NR1I3	-0.825
64	CARNMT1	-0.538
65	TRRAP	-1.26 (active)
66	MYOD1	-0.962
67	DACT2	-1.66 (active)
68	WDR4	0.737
69	TK1	0.542
70	DRGX	-1.05 (active)
71	CUTA	0.583
72	NIPSNAP3B	-0.463
73	GJB2	1.22 (active)
74	NPDC1	0.0188
75	FAF1	0.749
